# Potato spindle tuber viroid, loop 6: variant abundance in plants

Values reported by Wu et al. 2024 (doi:10.1371/journal.ppat.1012142).

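Three N. benthamiana plants were inoculated with the whole mutant pool. Progeny were sequenced from the inoculated region (day 5), the margin of the inoculated leaf (day 10) and systemic leaves (day 12).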

The pool varies loop 6 of the PSTVd intermediate strain in the pattern UNNNCGNNNG; wild type is UGACCGCGAG (upper and lower strand joined, each 5' to 3', the first 5 letters being the upper strand, closing pairs included).

Numbers give reads per thousand; 0 = not seen among the reads, higher = more abundant.
Each site shows the three plants.
"Pool" is the share in the plasmid pool used as inoculum, on the same scale.
The inoculated region was read from the minus strand, the other sites from the plus strand.
For reference, wild type rose from 20.7 per thousand in the pool to 195, 198, 203 (inoculated region), 629, 591, 734 (leaf margin) and 942, 870, 868 (systemic leaves).
Sequences that differ at fixed positions probably stem from PCR or sequencing errors, and defective variants can be carried along by functional ones.
With 36,220-57,551 reads a sample, very low values are single reads.

sequence,pool,inoculated region,leaf margin,systemic leaves
UACACGGUUG,0.196,0.139 0.0719 0.0369,0 0 0,0 0 0
UACACGUAAG,0.0523,0.765 0.557 0.498,0.0552 0 0.0464,0 0 0
UACACGUACG,0.105,0.608 0.557 0.498,0.110 0.101 0.116,0 0 0
UACACGUAGG,0.144,0.0695 0.108 0.111,0 0 0,0 0 0
UACACGUAUG,0.222,0.104 0.0898 0.0553,0.276 0 0.0464,0 0 0
UACACGUCAG,0.183,0.765 0.593 0.516,0.110 0.177 0.0232,0 0 0
UACACGUCCG,0.157,0.0348 0.0539 0.129,0 0 0,0 0 0
UACACGUCGG,0.248,0.0521 0.0719 0.129,0 0 0,0 0 0
UACACGUCUG,0.275,0.156 0.0719 0.0922,0 0 0,0 0 0
UACACGUGAG,0.170,0.0521 0.0539 0.0738,0 0 0.0232,0 0 0
UACACGUGCG,0.157,0.0695 0.108 0.129,0 0 0.0232,0 0 0
UACACGUGGG,0.118,0.0869 0.0898 0.0184,0.0276 0 0,0 0 0
UACACGUGUG,0.170,0.156 0.0359 0.0922,0 0 0.0696,0 0 0
UACACGUUAG,0.327,0.0869 0.0719 0.0369,0 0 0,0 0 0
UACACGUUCG,0.105,0.122 0.0539 0.0922,0.0552 0 0.0232,0 0 0
UACACGUUGG,0.222,0.0695 0.0719 0.0738,0 0.0252 0,0 0 0
UACACGUUUG,0.366,0.139 0.0898 0.0922,0 0 0.0232,0 0 0
UACAGGCCUG,0.0131,0 0 0,0 0 0,0 0 0
UACCAGUUAG,0.0131,0 0 0,0 0 0,0 0 0
UACCCGAAAG,0.222,0.626 0.521 0.498,0.0828 0.177 0.0928,0 0 0
UACCCGAACG,0.288,0.0695 0.108 0.0369,0 0 0,0 0 0
UACCCGAAGG,0.118,0.156 0.108 0.129,0 0 0.0232,0 0 0
UACCCGAAUG,0.196,0.0869 0.0898 0.0738,0 0 0,0 0 0
UACCCGACAG,0.248,0.191 0.126 0.0738,0 0 0,0 0 0
UACCCGACCG,0.144,0.122 0.126 0.0553,0.0276 0 0,0 0 0
UACCCGACGG,0.366,0.0521 0.108 0.0369,0 0 0.0928,0 0 0
UACCCGACUG,0.314,0.0869 0.0898 0.0738,0 0 0.0232,0 0 0
UACCCGAGAG,0.261,0.156 0.180 0.129,0 0 0.116,0 0 0
UACCCGAGCG,0.248,0.0695 0.0359 0.0922,0 0 0,0 0 0
UACCCGAGGG,0.222,0.0869 0.180 0.129,0 0 0,0 0 0
UACCCGAGUG,0.275,0.104 0.0719 0.166,0.0276 0 0.0232,0 0 0
UACCCGAUAG,0.261,0.139 0.0898 0.0553,0.0552 0 0.812,0 0 0
UACCCGAUCG,0.248,0.191 0.0539 0.0922,0 0 0,0 0 0
UACCCGAUGG,0.248,0.0521 0.108 0.184,0 0 0.0696,0 0 0
UACCCGAUUG,0.327,0.0695 0.108 0.0738,0 0 0,0 0 0
UACCCGCAAG,0.196,0.608 0.719 0.645,0 0.0504 0.116,0 0.0202 0
UACCCGCACG,0.209,0.678 0.521 0.590,0.221 0.0504 0.0232,0 0 0
UACCCGCAGG,0.170,0.0521 0.162 0.0184,0.0276 0 0,0 0 0
UACCCGCAUG,0.235,0.104 0.0539 0.0922,0.0276 0 0,0 0 0
UACCCGCCAG,0.157,0.851 0.701 0.387,0.166 0.126 0,0 0 0
UACCCGCCCG,0.183,0.0348 0.0539 0.0184,0 0 0,0 0 0
UACCCGCCGG,0.144,0.0695 0.0180 0.111,0 0 0.0232,0 0 0
UACCCGCCUG,0.209,0.0521 0.0719 0.166,0 0 0,0 0 0
UACCCGCGAG,0.275,0.174 0.126 0.295,0.193 0.177 1.04,0.0180 0.0404 0.0410
UACCCGCGCG,0.170,0.0869 0.0359 0.129,0.0276 0 0,0 0 0
UACCCGCGGG,0.157,0.104 0.0180 0.111,0 0 0,0 0 0
UACCCGCGUG,0.118,0.191 0.162 0.0553,0.0828 0.0252 0.0928,0 0 0
UACCCGCUAG,0.0915,0.591 0.934 0.498,0.221 0.0757 0.0928,0 0 0
UACCCGCUCG,0.170,0.104 0.126 0.0369,0 0 0.0232,0 0 0
UACCCGCUGG,0.196,0.0695 0.108 0.0738,0 0 0.0464,0 0 0
UACCCGCUUG,0.261,0.0695 0.0359 0.0922,0.0276 0 0,0 0 0
UACCCGGAAG,0.196,0.139 0.0898 0.0738,0 0 0,0 0 0
UACCCGGACG,0.275,0.122 0.126 0.0369,0.0552 0 0,0 0 0
UACCCGGAGG,0.144,0.104 0.126 0.0738,0 0 0,0 0 0
UACCCGGAUG,0.170,0.0695 0.108 0.0553,0 0 0,0 0 0
UACCCGGCAG,0.157,0.0348 0.0539 0.0922,0 0 0.0232,0 0 0
UACCCGGCCG,0.157,0.122 0.0359 0.0922,0 0 0.0232,0 0 0
UACCCGGCGG,0.248,0.191 0.0719 0.0369,0.0276 0 0.0232,0 0 0
UACCCGGCUG,0.288,0.139 0.0719 0.111,0 0 0,0 0 0
UACCCGGGAG,0.183,0.104 0.0180 0.148,0 0 0,0 0 0
UACCCGGGAU,0.0131,0 0 0,0 0 0,0 0 0
UACCCGGGCG,0.118,0.122 0.108 0.0738,0 0 0,0 0 0
UACCCGGGGG,0.131,0.104 0.0359 0.0738,0 0 0,0 0 0
UACCCGGGUG,0.118,0.122 0.0898 0.0553,0 0 0,0 0 0
UACCCGGUAG,0.170,0.0348 0.0539 0.0922,0 0 0.0696,0 0 0
UACCCGGUCG,0.314,0.139 0.0898 0.129,0 0 0,0 0 0
UACCCGGUGG,0.118,0.0695 0.0719 0.148,0 0 0,0 0 0
UACCCGGUUG,0.118,0.0521 0.0898 0.148,0 0 0,0 0 0
UACCCGUAAG,0.105,0.695 0.719 0.682,0.138 0.126 0.0696,0 0 0

10 of these entries, quoted again:

* UACCCGCAUG (pool 0.235) -> inoculated region 0.104 0.0539 0.0922; leaf margin 0.0276 0 0; systemic leaves 0 0 0
* UACCCGGCGG (pool 0.248) -> inoculated region 0.191 0.0719 0.0369; leaf margin 0.0276 0 0.0232; systemic leaves 0 0 0
* UACACGGUUG (pool 0.196) -> inoculated region 0.139 0.0719 0.0369; leaf margin 0 0 0; systemic leaves 0 0 0
* UACCCGGGGG (pool 0.131) -> inoculated region 0.104 0.0359 0.0738; leaf margin 0 0 0; systemic leaves 0 0 0
* UACCCGAAUG (pool 0.196) -> inoculated region 0.0869 0.0898 0.0738; leaf margin 0 0 0; systemic leaves 0 0 0
* UACCCGCUCG (pool 0.170) -> inoculated region 0.104 0.126 0.0369; leaf margin 0 0 0.0232; systemic leaves 0 0 0
* UACACGUUGG (pool 0.222) -> inoculated region 0.0695 0.0719 0.0738; leaf margin 0 0.0252 0; systemic leaves 0 0 0
* UACCCGCACG (pool 0.209) -> inoculated region 0.678 0.521 0.590; leaf margin 0.221 0.0504 0.0232; systemic leaves 0 0 0
* UACACGUCAG (pool 0.183) -> inoculated region 0.765 0.593 0.516; leaf margin 0.110 0.177 0.0232; systemic leaves 0 0 0
* UACCCGAGGG (pool 0.222) -> inoculated region 0.0869 0.180 0.129; leaf margin 0 0 0; systemic leaves 0 0 0